For at least one entry, the source does not settle the construct or the ends of the probe. No signal at the amounts used counts as a negative.
Columns and labels:
[1] = tested on: 2G12 (anti-HIV gp120 broadly neutralizing antibody); assay: binding assay; details: transcript of the listed DNA; 2'-F pyrimidines; every U is 2'-F-5-ethynyl-U clicked to Man9-cyclohexyl azide; no significant binding; clone lacks capture/spacer region; purified recombinant protein
[2] = tested on: 2G12 (anti-HIV gp120 broadly neutralizing antibody); assay: pull-down; details: 2'-F pyrimidines, no binding at 300 nM 2G12, qPCR bead assay, purified recombinant protein
[3] = tested on: 2G12 (anti-HIV gp120 broadly neutralizing antibody); assay: filter binding; details: 2'-F pyrimidines, purified recombinant protein
[4] = every U is 2'-F-5-ethynyl-U clicked to Man9-cyclohexyl azide (3 glycans), variant of 15F3
[5] = every U is 2'-F-5-ethynyl-U clicked to Man9-cyclohexyl azide (2 glycans), variant of 15F1

Does “GGAGACAGGAUUGACACCGACCACUUGCCCAAGCGACACAAAGCCCGG [18F4]” bind [1]?
Result: no binding

Does “GGAGACUGUCCCAACGGCAAUGUGGCUCACAAGCGACACAAAGCCCGG [17F3]” bind [1]?
Result: no binding

Does “GGAGAGAAGGAGGGAAGAGAGAAAAAAAACAUAGGGAACCCAGGAGAUUGGGGCAAGCGACACAAAGCCCGG [15F3-M2]” bind [2, 4]?
Result: no binding

Does “GGAGAGAAGGAGGGAAGAGAGAAAAAAAACAUAGGGAACCCAGGUGACUGGGGCAAGCGACACAAAGCCCGG [15F3-M3]” bind [2, 4]?
Result: no binding

Does “GGAGAGAAGGAGGGAAGAGAGAAAAAAAACAUAGGGAACCCAGGUGAUUGGGGCAAGCGACACAAAGCCCGG [15F3]” bind ([3]; every U is 2'-F-5-ethynyl-U clicked to Man9-cyclohexyl azide (4 glycans), minimal or no binding after denaturing PAGE purification and refolding)?
Result: no binding

Does “GGAGAGAAGGAGGGAAGAGAGAAAAAAAACAUAGGGAACGCCGGUGAUGGCGGCAAGCGACACAAAGCCCGG [15F3-M4]” bind [2, 4]?
Result: no binding

Does “GGAGAGAAGGAGGGAAGAGAGAAAAAAACGACGGAACAGGGGCCCCCUGUGGAAAGCGACACAAAGCCCGG [15F1-M1]” bind ([2]; every U is 2'-F-5-ethynyl-U clicked to Man9-cyclohexyl azide (2 glycans), at most 3% of parent signal (FIG. 8), variant of 15F1)?
Result: no binding

Does “GGAGAGAAGGAGGGAAGAGAGAAAAAAUCGACGGAACAGGGGCCCCCUGUGGAAAGCGACACAAAGCCCGG [15F1]” bind ([3]; every U is 2'-F-5-ethynyl-U clicked to Man9-cyclohexyl azide (3 glycans), minimal binding after denaturing PAGE purification and refolding)?
Result: no binding

Does “GGAGAGAAGGAGGGAAGAGAGAAAAAAUCGACGGAACCGGGGCCCCCGGUGGAAAGCGACACAAAGCCCGG [15F1-M2]” bind [2, 5]?
Result: no binding

Does “GGAGAGAAGGAGGGAAGAGAGAAAAAAUCGACGGAGCAGGGGCCCCCUGCGGAAAGCGACACAAAGCCCGG [15F1-M3]” bind [2, 5]?
Result: no binding

Source: patent US20250281598
